The exact form of at least one protein or probe is not confirmed.
Key:
Test in all cases: EMSA
[1] = target: RcrR wild-type (Escherichia coli CFT073 (UPEC)) (UniProt A0A0H2VAS2); details: recombinant protein, protein details: N-terminal His6 (pET28a), probe letters rebuilt from the primers and the genome
[2] = target: RcrR-C88S (Escherichia coli CFT073 (UPEC)) (UniProt A0A0H2VAS2); details: reduced, comparable to wild type; recombinant protein; protein details: N-terminal His6 (pET28a); probe letters rebuilt from the primers and the genome
[3] = target: RcrR-C153S (Escherichia coli CFT073 (UPEC)) (UniProt A0A0H2VAS2); details: reduced, comparable to wild type; recombinant protein; protein details: N-terminal His6 (pET28a); probe letters rebuilt from the primers and the genome

Measured: binding result

CATGAGCAGTTTCTCTTTATGTTTGCGATACTACACATGCTACCTTCTGATTGGTAGGCTTGCAAGATGGATTTATTTAAAATAAGAGGGATGATTTGTATCAAATTGTTTTGTATTTTTGTGTTTTGTATCACTGAGGTGAAGTTGTAAGATCTGGCCCTCTGCGAGGTTGGCTCTGTCGAAAGGAACAGGTGACGAGAGTTAACATCGTTGCCTTGGCTGCATGGGGGATATGTAGCTACCCCCTGATATTTCCGCCACGGAAGCCAATATGAACAACAATAACAATACGCCTCGTTTCCAGTATGCTTCATGTCGGATATTTTGTAAGCGCTATGTACTTCCCGGGACGCTTATCTTTTAGCCGTAGCTGGTAGTGCAATAAAAGCCTGGCAGCAATCCAGGCCTCTACGTTCTAAGAATCAACTGTCAG (double strand) [PrcrARB promoter fragment]
binds: [1]; NCT-oxidized, then 2 mM DTT | [1]; pretreated with 5-fold H2O2 | [1]; reduced | [2] | [3]

From article PMC9600549
